# Results published in publication PMC3334918, “Mutagenesis and Functional Studies with Succinate Dehydrogenase Inhibitors in the Wheat Pathogen Mycosphaerella graminicola” (PLoS ONE, 2012).
# How the values were obtained:
# [1] = system: M. graminicola WT (IPO323); format: cell-based, Mycosphaerella graminicola; settings: None, ratio IC50mutant/IC50WT
# Method: To explore the sensitivity profiles conferred by amino acid substitutions at the cellular and mitochondrial level, we determined sensitivity towards 4 different compounds for 26 of the identified substitution types both in vivo using liquid culture growth (AE media) and in vitro using purified mitochondria and the succinate: Q0/DCPIP activity test (Table 3). […] Resistance factors (RF) were determined as the ratio IC50mutant/IC50WT. […] Qp site mutations are well known to influence SDH enzyme activity and stability upon catalysis, [13], [38], [41].
# Conidial cells were collected from 4 day old V8 agar plates (cultured at 18°C in the dark) using liquid AE and a cell spreader. Cell density was determined and cells re-suspended to a concentration of 5×10^5 cells ml^−1 in AE media. Sterile 96 wells microtiter plates with lids (Costar) were inoculated with 198 µl of this cell suspension (10^5 cells per well) and 2 µl of inhibitor (100× in DMSO). Final inhibitor concentrations were between 0.95 nM and 1 mM with uniform 4× dilution factor steps (11 inhibitor concentrations+1 DMSO control). Plates were incubated for 6 days at 19°C in the dark before cells were re-suspended and measured for growth (OD600 nm). IC50 values were determined by non linear curve fitting on the basis of measured OD values versus log inhibitor concentrations (GraphPad Prism 5.0 software).
# [2] = system: M. graminicola isolate IPO323; test: UV mutagenesis and selection of resistant colonies on carboxamide amended AE agar; format: cell-based, Mycosphaerella graminicola
# Method: Selection plates were produced after adding 1% of a 100× DMSO solution of the active ingredients to pre-melted AE-agar.
# Cells were harvested from 4 days old V8 agar plates and conidial cells were suspended in liquid AE. 10^7 cells were spread onto carboxamide amended AE agar plates and mutagenized using UV Stratalinker 2400 (Stratagene) with 75 mJ cm^−2 or 50 mJ cm^−2. […] Selection plates were incubated in the dark at 20°C for 14 days. Visible colonies were picked from the primary selection plate and re-grown on fresh selection media for 2 additional weeks under the same conditions.
# [3] = selection at 5× MSC, UV treatment 50 mJ cm^−2
# [4] = selection at MSC, UV treatment 50 mJ cm^−2
# [5] = selection at 5× MSC, UV treatment 75 mJ cm^−2
SMILES,Resistance Factors (RFs) in vivo [1],"Frequency (of resistance development) [2, 3]","Frequency (of resistance development) [2, 4]","Frequency (of resistance development) [2, 5]"
O=C(Nc1ccccc1-c1ccc(Cl)cc1)c1cccnc1Cl [Boscalid],1,8.8E-06,1.3E-06,
CC1=C(C(=O)Nc2ccccc2)SCCO1 [Carboxin],1,1.1E-08,6.2E-07,1.1E-08
O=C(NCCc1ncc(C(F)(F)F)cc1Cl)c1ccccc1C(F)(F)F [Fluopyram],1,absence of growing colonies,7.1E-07,2.2E-08
